Taken from: PubChem BioAssay AID1259414 (Drosophila RNAi Screening Center, 2018)
The deposit covers about 24,000 reagents; shown is an unselected part of those that have a named target and a result. Of all reagents, about 1,210 (5%) got an active call. 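Inactive calls also include excluded dsRNAs with several or no targets, genes unexpressed in JW18, and well A1, regardless of score.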 Entries without a mark were called inactive. The numbers tell different reagents against one gene apart. Names joined by + are all predicted targets of the reagent. No sequences are given here.

Assay: 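Genome-wide screen for host control of endosymbiont load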 (primary screen)
Cell system: Drosophila JW18 cells infected with Wolbachia
Knock-down reagent: long dsRNA against Drosophila genes, 0.25 µg dsRNA per well of a 384-well plate
Timing: 5 days
Treatment: cells persistently infected with Wolbachia before knock-down; no added drug
Read-out: 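Automated imaging of bacterial rRNA staining divided by host cell count, reported as plate-normalised robust z-score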
Reading the numbers: Wolbachia per cell robust z: higher = more Wolbachia per host cell than the plate typical
Rule for the call: 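Hit when robust z is 1.5 or more, or -1.5 or less, in at least two of three replicates; excludes dsRNAs with several or no targets, genes not expressed in JW18 and well A1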

Gene | reagent | Wolbachia per cell robust z, rep 1 | Wolbachia per cell robust z, rep 2 | Wolbachia per cell robust z, rep 3
Plp | 1 | -0.49 | 0.591 | 0.298
Plp | 2 | -0.974 | -0.249 | -1.73
Plp | 3 | 0.225 | 0.349 | -0.066
CG12560 | 1 | 0.392 | 0.0918 | -0.687
rumi | 1 | -2.43 (active) | -2.39 | -0.776
rumi | 2 | 0.0376 | -2 | 0.776
CG43333 | 1 | -0.196 | -1.15 | -0.547
CG43333 | 2 | -2.33 | 0.197 | -4.01
zetaCOP | 1 | 0.969 (active) | 1.52 | 2.52
Gapdh1 | 1 | 0.599 | 0.0791 | 0.394
Gapdh1 | 2 | -0.305 | -0.445 | -1.44
eIF1A | 1 | 1.34 | 1.14 | 1.52
CG4781 | 1 | 0.439 | 0.166 | 0.0838
AstC-R2 | 1 | -4.73 | 1.59 | 0.508
CG9004 | 1 | 0.0875 | 1.17 | 0.37

4 of these entries, set out differently.
Gene,reagent,"Wolbachia per cell robust z, rep 1","Wolbachia per cell robust z, rep 2","Wolbachia per cell robust z, rep 3"
CG43333,2,-2.33,0.197,-4.01
zetaCOP,1,0.969 (active),1.52,2.52
Gapdh1,1,0.599,0.0791,0.394
Gapdh1,2,-0.305,-0.445,-1.44

The list goes on.
Gene | reagent | Wolbachia per cell robust z, rep 1 | Wolbachia per cell robust z, rep 2 | Wolbachia per cell robust z, rep 3
lncRNA:CR34024 | 1 | 0.455 | 0.685 | 1.01
Rab30 | 1 | -1.34 | -0.349 | -4.19
Rab30 | 2 | -1.78 | 0.017 | -0.395
sas | 1 | -0.913 | 0.449 | -0.679
CG6683 | 1 | 0.646 | -0.918 | -0.608
CG6683 | 2 | -0.312 | 0.433 | -0.608
CG10505 | 1 | -0.675 | -0.481 | -1.85
PCNA | 1 | 1.63 | 0.564 | -0.167
tobi | 1 | -3.37 | -0.182 | -1.14
CG10853 | 1 | 0.242 | -0.329 | -5.78
CG10853 | 2 | -0.344 | -2.04 | 0.105
Aasdh | 1 | 0.338 | -7.13 | -0.419
nSyb | 1 | -0.195 | -3.92 | 0.173
nSyb | 2 | 0.237 | -0.163 | 0.272
nSyb | 3 | -3.89 | 0.576 | 0.552
nSyb | 4 | -0.0447 | -0.165 | 2.08
CG17197 + CG17198 | 1 | 0.348 | 0.418 | 0.873
CG3106 | 1 | -0.0324 | -0.65 | 0.164
CG3106 | 2 | -0.0708 | -0.849 | -0.299
MED14 | 1 | 1.24 | 0.112 | -0.332
MED14 | 2 | 2.22 (active) | 2.14 | 0.798
C3G | 1 | 0.32 | -0.362 | -1.55
C3G | 2 | 0.441 | 1.54 | 1.18
C3G | 3 | 0.264 | 0.681 | 0.623
RpL13 | 1 | 1.89 | 1.18 | 0.433
CG34300 | 1 | -0.678 | 0.549 | -0.0765
CG13008 | 1 | 0.626 | 0.231 | 0.787
CG13008 | 2 | -1.16 | 0.195 | 0.493
GstO3 | 1 | 0.4 | 0.28 | -0.338
CG34375 | 1 | 0.561 | 0.963 | 0.394
CG34375 | 2 | 0.257 | -0.588 | -0.378
CG34375 | 3 | -1.17 | -0.978 | 0.175
